Among the data in patent publication US20120269821A1 are Ratio (mutant IC50)/(wild-type IC50) values, retold here.

This assay concerns the target COT6.15 envelope, wild type (HIV-1). As to the kind of experiment: cell-based or functional assay.

For mAb 4E10 (antibody), the Ratio (mutant IC50)/(wild-type IC50) came out at 1.
